{
  "source": "patent US20260069689A1",
  "about": "“ANTI-SARS-COV-2-SPIKE GLYCOPROTEIN ANTIBODIES AND ANTIGEN-BINDING FRAGMENTS” (Regeneron, published 2026)",
  "binders": {"B1": {"name": "mAb14283 (antibody, V domains shown)", "VH": "QVQLQESGPGLVKPSGTLSLTCDVSGGSISSNNWWSWVRQRPGKGLQWIGEIYHNENTNYNPSLKSRVIMSIDKSKNQFSLKLTSVTAADTAVYYCARGDVLDWFDPWGQGTLVTVSS", "VL": "QSALTQPASVSGSPGQSTTISCTGTSSDVGGYNYVSWYQQYPGKAPKLMIYDVTNRPSGVSHRFSGSKSGNTASLTISGLQAEDEADYYCSSYTSSSTVIFGGGTKLTVLG"}, "B2": {"name": "mAb14231 (antibody, V domains shown)", "VH": "EVQLVESGGGLVQPGGSLRLSCAASGFTFSSYWMSWVRQAPGKGLEWVANIKQDGSEKYYVDSVKGRFTISRDNAKNSLYLQMNSLRAEDTAVYYCARAPGNFDWLFRSDYYYGMDVWGQGTTVTVSS", "VL": "not shown"}, "B3": {"name": "mAb14230 (antibody, V domains shown)", "VH": "EVQLVESGGGLIQPGRSLRLSCAASGFTFDDYAMHWVRQAPGKGLEWVSGISWNSVSIDYADSVKGRFTISRDNAKNSLYLQMTSLTVEDTALYYCAKAFGYETLTGSDYFAYWGPGTLVTVSS", "VL": "EIVLTQSPGTLSLSPGERATLSCRASQTVISTYLAWYQQKPGQSPRLLIYGASSRATGIPDRFSGSGSGTDFTLTISRLEPEDFAVYYCQQYGSSPQLTFGGGTKVEIKR"}, "B4": {"name": "mAb14235 (antibody, V domains shown)", "VH": "QITLKESGPTLVKPTQTLTLTCTFSGFSLNTGGVGVGWIRQPPGNALEWLALIYWDDDKRYNPSLKTRLTISKDTSKNQVVLTMTNMDPVDTATYFCAHLTIAVIVDFWGQGTLVTVSS", "VL": "QSALTQPASVSGSPGQSITISCTATSSDVGTYNYVSWFQHHPGKAPKLMIYEVTNRPSGVSNRFSGSKSGNTASLTISGLQAEDEADYYCSSYTTTSIVFGGGTKLTVLG"}, "B5": {"name": "mAb14260 (antibody, V domains shown)", "VH": "EVQLVESGGGLVQPGGSLRLSCAASGFTFSIYEMNWVRQAPGKGLEWVSYITSSGFTIYYADSVKGRFTISRDNAKNSLYLQMHSLRAEDTAVYYCATSSSSGYYFDYWGQGTLVTVSS", "VL": "not shown"}, "B6": {"name": "mAb14285 (antibody, V domains shown)", "VH": "QVQLVQSGAEVKKPGASVKVSCKASGYTFTGYFIHWVRQAPGQGLEWMGWISPISGGTNYAQKFQGRVTVTRDTSITTAYMELSRLTSDDTAVYHCAREGGTWKGDFDYWGQGTLVTVSS", "VL": "QSALTQPASVSGSPGQSITISCTGTSSDVESYNLVSWYQQHPGKAPKLMIYEGSKRPSGVSNRFSGSKSGNTASLTISGLQAEDEADYYCSSYAGSSTWVFGGGTKLTVLG"}, "B7": {"name": "mAb14287 (antibody, V domains shown)", "VH": "QVQLVQSGAEVKKPGSSVKVSCKASGGTFSNNAISWVRQAPGQGLEWMGKIIPILGIGGDAQKFQGRFTITADKSTSTAYMELSSLRSEDTAVYYCANSGDSRPHAFDIWGQGTMVTVSS", "VL": "B6 VL with E30G, G53V, S97R, T98R, W99E"}, "B8": {"name": "mAb14288 (antibody, V domains shown)", "VH": "EVQLVESGGGLVQPGGSLRLSCAASGFTLSSYDMHWVRQVIGKGLEWVSTIGTSGDTYYPGSVKGRFTISRENAKNSLYLQMNSLRAGDTAVYYCARGGVPTTIWSGPYYYYMDVWGKGTTVTVSS", "VL": "QSVLTQPPSVSAAPGQKVTISCSGSSSNIGNNYVSWYQQLPGTAPKLLIYENNKRPSGIPDRFSGSKSGTSATLGITGLQTGDEADYYCGTWDSSLSAGQGVFGGGTKLTVLG"}, "B9": {"name": "mAb14232 (antibody, V domains shown)", "VH": "QITLKESGPTLVKPTQTLTLTCTFSGFSLSASGVGVGWIRQPPGKALEWLALIYWDDDKRYSPSLKSRLTITKDTSKNQVVLTMTNMDPVDTATYYCAQHKVATIFDYWGQGTLVTVSS", "VL": "QSALTQPPSASGSPGQSVTISCTATSSDVGNYNYVSWYQQHPGKAPKLMIYEVTKRPSGVPDRFSGSKSGNTASLTVSGLQAEDEADYYCSSYAGSWGVFGGGTKLTVLG"}, "B10": {"name": "mAb14284 (antibody, V domains shown)", "VH": "B9 VH with L29F, A31T, A46T, Y96F, Q99H, K101G, V102I, A103P, D107G, T113A", "VL": "B4 VL with A24G, V29L, T31V, Y32F, F38Y, H40Q, T96S, I98T"}, "B11": {"name": "mAb14247 (antibody, V domains shown)", "VH": "B9 VH with A31T, G33A, V80L, M87V, Q99H, K101T, V102I, A103Q, T104L", "VL": "QSALTQPASVSGSPGQSITISCTATSSDVGNYNYVSWYQQHPGKAPKLMIYEVSNRPSGVSNRFSGSKSGNTASLTISGLQAEDEADYYCSSYTSSSTPLVFGGGTKLTVLG"}, "B12": {"name": "mAb14249 (antibody, V domains shown)", "VH": "QVQLVQSGAEVKKPGASVKVSCKASGYTFTGYYMHWVRQAPGQGLEWMGRINPYSGGTNYAQKFQGRVTMTRDTSISTAYMELSRLRSDDTAVYYCASGFEPHDYGDPNLPPWGQGTLVTVSS", "VL": "not shown"}, "B13": {"name": "mAb14258 (antibody, V domains shown)", "VH": "QLQLQESGPGLVKPSETLSLICTGSGDSISSSHYYWGWIRQPPGKGLEWIGSTYFSGSTYYNPSLKSRVSISVDTSKNQVSLKLISVTAADTAVYYCAREMGATLGDYWGPGTLVTVSS", "VL": "QSVLTQPPSASGTPGQRVTISCSGSSSNIGNNYVYWYQQFPGTTPRLLIYRNNERPSGVPDRFSGSKSGTSASLVISGLRSEDEADYYCAAWDDSLSAHYVFGTGTKVTVLG"}, "B14": {"name": "mAb14257 (antibody, V domains shown)", "VH": "EVQLVESGGGLVQPGGSLRLSCAASGFTVSRSYMNWVRQAPGKGLEWVSVVFTGGTTKHTDSVKGRFTISRDNSMNTLYLQMNSLRPEDTAVYYCARVAIVETTGAFDIWGQGTMVTVSS", "VL": "QSVLTQPPSVSGAPGQRVTISCTGTSSNIGADFDVHWYQQFPGTAPKLLIYGHTNRPSGIPDRFSGSKSGTSASLAITGLQAEDEADYYCQSYDSSLSGSVVFGGGTKLTVLG"}, "B15": {"name": "mAb14248 (antibody, V domains shown)", "VH": "QVQLVQSGAEVKKPGASVKVSCKVSGYTLTELSIHWVRQAPGKGLEWMGGFNPEDAETIYAQKFQGRVTMTEDTSTDTAYMELRALRFEDTAVYYCATAFAVVSVGTGLNYNYYYGMDVWGQGTTVTVSS", "VL": "not shown"}, "B16": {"name": "mAb14280 (antibody, V domains shown)", "VH": "QVQLVQSGAEVKKPGASVRVSCKASGYTFTGNYIHWVRQAPGQGLEWMAWINPNSGGKNYAQKFQGRVTLTRDTSVNTAYMELSRLRSDDTAMYYCARDVNYNILTGPGGLWGQGTLVTVSS", "VL": "QSALTQPPSASGSPGQSVTISCTGTSSDVGGYNFVSWYQQHPGKAPKLMIYEVSKRPSGVPDRFSGSKSGNTASLTVSGLQAEDEADYYCSSYAGSNNFVFGTGTKVTVLG"}, "B17": {"name": "mAb14233 (antibody, V domains shown)", "VH": "QVQLVESGGGVVQPGRSLRLSCAASGFIFSSYGMHWVRQAPGKGLEWVAVIWYDGSNKFYADSVKGRFTISRDNSKNTLYLQVNSLRAEDTAVYYCARAVQGDWYFDHWGQGTLVTVSS", "VL": "SYELTQPPSVSVSPGQTARITCSGDVLAKLYAYWYQHKPGQAPVLVIYKDSERPSGIPERFSGSSSGTTVTLTISGVQAEDEADYYCQSADSSGSLWVFGGGTKLTVLG"}, "B18": {"name": "mAb14255 (antibody)", "heavy": "not shown", "light": "QSALTQPASVSGSPGQSITISCTGTSSDVGSYNLVSWYQQHPGKAPKLMIYEDSKRPSGVANPFSGSKSGNTASLTISGLQAEDEADYYCSSYAGSSTWVFGGGTKLTVLGQPKAAPSVTLFPPSSEELQANKATLVCLISDFYPGAVTVAWKADSSPVKAGVETTTPSKQSNNKYAASSYLSLTPEQWKSHRSYSCQVTHEGSTVEKTVAPTECS"}, "B19": {"name": "mAb15150 (antibody, V domains shown)", "VH": "EVQLVETGGGLIQPGGSLRLSCAAPGFIVSSNYMSWVRQAPGKGLEWVSLLYPGGSTYYADSVKGRFTISRDNSKNTLYLQMNSLRADDTAVYYCARVLPIVEDHFDYWGQGTLVTVSS", "VL": "DIQLTQSPSFLSASVGDRVTITCRASQGMSSYLAWYQKKPGKAPKLLIYGATILQSGVPSRFSGSGSGTEFTLTISSLQPEDFATYYCQQLNSDPLYMYTFGQGTKLEIKR"}, "B20": {"name": "mAb14282 (antibody, V domains shown)", "VH": "QVQLVQSGAEVKKPGASVKVSCKASGYIFTDHYMHWVRQAPGQGLEWMGWINPNSGATNYAQNFQGRVTMTRDTSIITVYMELSRLRSDDTAVYYCARDSSPYMIRYTMDVWGQGTTITVSS", "VL": "QSALTQPASVSGSPGQSITISCTGTSSDVGSYNLVSWYQQHPGKAPKLMIYELTKRPSGVSNRFSGSKSGNTASLTISGLQAEDEADYYCSSYRGSVTDVVFGGGTKLTVLG"}, "B21": {"name": "mAb14259 (antibody, V domains shown)", "VH": "EVQLVESGGGLVQPGGSLRLSCAASGFPFSTYEMNWVRQAPGKGLEWVSYISSSGNTIYYADSVKGRFTISRDNAKNSLYLQMNTLRAEDTAVYYCARDAVRDHDILTDPATFDPWGQGTLVTVSS", "VL": "DIVMTQSPLSLPVTPGEPASISCRSSQTLLHSNGYNYLDWYLQKPGQSPQLLIHLGSNRASGVPDRFSGSGSVTDFTLKISRVEAEDVGVYYCMQALQTPYTFGQGTKLEIKR"}, "B22": {"name": "mAb14281 (antibody, V domains shown)", "VH": "QVQLVQSGADVKKPGASVKVSCKTSGYIFTGYYIHWVRQAPGQGLEWMGWINPNSGGTNSAQKFQGRVTMTRDTSISTVYMELSRLRSDDTAVYYCAKSNSFSVLDYNFDYWGQGTLVTVSS", "VL": "SSELTQDPAVSVALGQTVRITCQGDSLRSYYASWYQQKPGQAPVLVIYDKNNRPSGIPDRFSGSSSGNTASLTITGAQAEDEADYYCNSRDSSRNHLVVFGGGTKLTVLG"}},
  "note": "Residue numbers refer to the chain shown, from its start.",
  "data": [
    {"biological_target": "SARS-CoV-2 spike protein, wild-type (Wuhan-Hu-1) or D614G control (SARS-CoV-2)", "assay": "cell-based or functional assay", "units": {"IC50 (pseudoparticle neutralization)": "nM"}, "values": [
      {"binder": "B1", "IC50 (pseudoparticle neutralization)": 0.0549},
      {"binder": "B2", "IC50 (pseudoparticle neutralization)": 1.02},
      {"binder": "B3", "IC50 (pseudoparticle neutralization)": 0.0241},
      {"binder": "B4", "IC50 (pseudoparticle neutralization)": 0.0338},
      {"binder": "B5", "IC50 (pseudoparticle neutralization)": 0.0928},
      {"binder": "B6", "IC50 (pseudoparticle neutralization)": 0.0325},
      {"binder": "B7", "IC50 (pseudoparticle neutralization)": 0.199},
      {"binder": "B8", "IC50 (pseudoparticle neutralization)": 1.38},
      {"binder": "B9", "IC50 (pseudoparticle neutralization)": 0.0635},
      {"binder": "B10", "IC50 (pseudoparticle neutralization)": 0.0314},
      {"binder": "B11", "IC50 (pseudoparticle neutralization)": 0.058},
      {"binder": "B12", "IC50 (pseudoparticle neutralization)": 0.162},
      {"binder": "B13", "IC50 (pseudoparticle neutralization)": 0.0557},
      {"binder": "B14", "IC50 (pseudoparticle neutralization)": 0.0291},
      {"binder": "B15", "IC50 (pseudoparticle neutralization)": 0.062},
      {"binder": "B16", "IC50 (pseudoparticle neutralization)": 0.0286},
      {"binder": "B17", "IC50 (pseudoparticle neutralization)": 0.0542},
      {"binder": "B18", "IC50 (pseudoparticle neutralization)": 0.0343},
      {"binder": "B19", "IC50 (pseudoparticle neutralization)": 0.0621},
      {"binder": "B20", "IC50 (pseudoparticle neutralization)": 0.0327},
      {"binder": "B21", "IC50 (pseudoparticle neutralization)": 0.0372},
      {"binder": "B22", "IC50 (pseudoparticle neutralization)": 0.0335}
    ]}
  ]
}
